Experimental data: PubChem BioAssay AID1259414 (Drosophila RNAi Screening Center, 2018)

- Test: 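Genome-wide screen for host control of endosymbiont load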 (primary screen)
- Cell system: Drosophila JW18 cells infected with Wolbachia
- Reagents: long dsRNA against Drosophila genes, 0.25 µg dsRNA per well of a 384-well plate
- Duration: 5 days
- Treatment: cells persistently infected with Wolbachia before knock-down; no added drug
- Detection: 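Imaged fluorescence in situ signal for Wolbachia 23S rRNA per DAPI-counted host cell, given as a robust z-score within each plate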
- Scale: Wolbachia per cell robust z: higher = more Wolbachia per host cell than the plate typical
- Hit rule: 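Active if absolute robust z reaches 1.5 in two or more of three replicates, leaving out multi- or no-target dsRNAs, genes unexpressed in JW18 and A1 wells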
In all, the deposit lists about 24,000 reagents; shown is an unselected part of those that have a named target and a result. Of all reagents, about 1,210 (5%) got an active call. 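Inactive calls also include excluded dsRNAs with several or no targets, genes unexpressed in JW18, and well A1, regardless of score.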 Reagents against one gene are numbered here.

kcc (kazachoc) #1 → Wolbachia per cell robust z, rep 1: -0.86; Wolbachia per cell robust z, rep 2: 0.0239; Wolbachia per cell robust z, rep 3: 0.244; Outcome: inactive
kcc (kazachoc) #2 → Wolbachia per cell robust z, rep 1: 0.162; Wolbachia per cell robust z, rep 2: 0.0842; Wolbachia per cell robust z, rep 3: 0.463; Outcome: inactive
ND-B12 (NADH dehydrogenase (ubiquinone) B12 subunit) → Wolbachia per cell robust z, rep 1: -2.17; Wolbachia per cell robust z, rep 2: -0.3; Wolbachia per cell robust z, rep 3: 0.0244; Outcome: inactive
ttm2 (tiny tim 2) → Wolbachia per cell robust z, rep 1: 1.07; Wolbachia per cell robust z, rep 2: -0.857; Wolbachia per cell robust z, rep 3: 1.05; Outcome: inactive
Nup58 (Nucleoporin 58kD) #1 → Wolbachia per cell robust z, rep 1: -0.279; Wolbachia per cell robust z, rep 2: -0.272; Wolbachia per cell robust z, rep 3: 0.481; Outcome: inactive
Nup58 (Nucleoporin 58kD) #2 → Wolbachia per cell robust z, rep 1: -0.152; Wolbachia per cell robust z, rep 2: 0.677; Wolbachia per cell robust z, rep 3: 0.33; Outcome: inactive
YL-1 #1 → Wolbachia per cell robust z, rep 1: 0.052; Wolbachia per cell robust z, rep 2: -1.86; Wolbachia per cell robust z, rep 3: 0.711; Outcome: inactive
YL-1 #2 → Wolbachia per cell robust z, rep 1: -2.09; Wolbachia per cell robust z, rep 2: -9.22; Wolbachia per cell robust z, rep 3: -0.883; Outcome: active
CG14968 #1 → Wolbachia per cell robust z, rep 1: 0.171; Wolbachia per cell robust z, rep 2: 0.276; Wolbachia per cell robust z, rep 3: 0.331; Outcome: inactive
CG14968 #2 → Wolbachia per cell robust z, rep 1: 0.386; Wolbachia per cell robust z, rep 2: 0.0127; Wolbachia per cell robust z, rep 3: -1.2; Outcome: inactive
Traf-like (TNF-receptor-associated factor-like) → Wolbachia per cell robust z, rep 1: -0.0278; Wolbachia per cell robust z, rep 2: -0.885; Wolbachia per cell robust z, rep 3: -0.777; Outcome: inactive
tap (target of Poxn) → Wolbachia per cell robust z, rep 1: -1.8; Wolbachia per cell robust z, rep 2: -3.73; Wolbachia per cell robust z, rep 3: -0.207; Outcome: inactive
